The text below walks through data of patent US20190352376A1 (NATIONAL RESEARCH COUNCIL OF CANADA, published 2019).

In assay [1] the target is hemagglutinin of H3N1 A/Victoria/361/2011 (influenza virus H3N1 A/Victoria/361/2011). Briefly: dot blot, 4M urea; VLP (plant/MedG), dot 22.
The target in assay [2] is hemagglutinin of H1N1 A/California/06/2008 (influenza virus H1N1 …). As to the kind of experiment: dot blot, 4M urea; VLP (plant/MedG), dot 24.

B1: F211-11H12 (antibody, V domains shown)
VH: DVQLQESGPGLVKPSQSLSLTCSVTGYSITSDYYWNWIRQFPGNKLEWMAYIGYDGTKNYNPSLKNRISITRDTSKNQFFLKLNSVTTDDTATYYCTRDRANWDDYFDYWGQGTTLTVSS
VL: DIVMSQSPSSLAVSVGEKVTMSCKSSQSLLNSRNQKNHLAWYQQKPGQSPKLLIYWASTRESGVPDRFTGDGSGTDFTLTISSVKAEDLAVYYCQQYYTYRTFGGGTKLEIK
For the molecule B1, the signal intensity in assay [1] is 3700 arbitrary fluorescent units; in assay [2], 54100 arbitrary fluorescent units.

B2: F211-9D1 (antibody, V domains shown)
VH: DVQLQESGPGLVKPSQSLSLTCSVTGYSITSDYYWNWIRQFPGNKLEWMAYIGYDGSKNYNPSLKNRISITRDTSKNQFFLKLNSVTTDDTATYYCTRDRANWDDYFDYWGQGTTLTVSS
VL: DIVMSQSPSSLAVSVGEKVTMSCKSSQSLLNSRNQKNHLAWYQQKPGQSPKLLIYWASTRESGVPDRFSGDGSGTDFTLTISSVKAEDLAVYYCQQYYTYRTFGGGTKLEIK
On to B2, for which the signal intensity in assay [1] is 4290 arbitrary fluorescent units; in assay [2], 55400 arbitrary fluorescent units.

B3: F211-10A9 (antibody, V domains shown)
VH: QIQLQQSGPELVKPGAPVKISCKASGYTFTDYYIHWVNQRPGQGLEWIGYIYPGNGHTVYNQKFKVRATLTADNPSSTAYLQLNSLTSEDSGVYFCAYDLFNYWGQGTLVTVSA
VL: DIVMTQSPSSLAMSVGQKVTMSCKSSQSLLNSDTQKNFLAWYQQKPGQSPKILVYFASTKESGVPDRFIGSGSGTDFTLTITSVQAEDLADYFCQQYYSIPLTFGAGTKLELK
For the molecule B3, the signal intensity in assay [1] was 34000 arbitrary fluorescent units; in assay [2], 55100 arbitrary fluorescent units.
